Measured values from several laboratories, pooled; numbers as filed in NIAID ChemDB.

All rows: whole-cell or culture tests; organism: HIV-1

ECn: concentration that inhibits the pathogen or its effect by n%. An empty or dashed field is not shown. a–b is a range or a potency band. Rows are shuffled and stem from different studies.

| structure | changes | strain or isolate | cells | method | endpoint | value |
|---|---|---|---|---|---|---|
| Cc1cn([C@H]2C[C@H](N=[N+]=[N-])[C@@H](CO)O2)c(=O)[nH]c1=O | RT-D67N K70R K172R | IIIB | MT-4 | cytopathic effect / MTT | EC50 | 0.051 µM |
| Nc1ccn([C@H]2CO[C@@H](CO)S2)c(=O)n1 |  | IIIB | H9 | p24 | EC50 | 0.3 µM |
| COC(=O)[C@H](C)NP(=O)(OC[C@@H]1CC[C@H](n2cnc3c(N)ncnc32)C1)Oc1ccccc1 |  | IIIB | MT-4 | cytopathic effect / MTS | EC50 | 0.2 µM |
| Cc1nc2ccccc2c(-c2ccc3c4c(ccnc24)[C@@H]2C[C@H]32)c1[C@H](OC(C)(C)C)C(=O)O |  | IIIB | MT-4 | ATP | EC50 | 4.18 µM |
| Nc1nc2c(ncn2C2CC(/C=C/P(=O)(O)O)(C(F)(F)F)CO2)c(=O)[nH]1 |  | LAI | PBMC | RT activity | EC90 | 95 µM |
| CC(C)CN(C[C@@H](O)[C@H](Cc1ccccc1)NC(=O)[C@H](CC(N)=O)NC(=O)c1ccc2ccccc2n1)C(=O)NC(C)(C)C |  | MN | MT-2 | RT activity | EC50 | 0.088 µM |
| O=c1[nH]cnc2c1ncn2[C@H]1CC[C@@H](CO)O1 |  | Isolate 2441 | PBMC | p24 | EC50 | 12.7 µM |
| CCCc1cc(=O)oc2c3c(c4c(c12)OC(C)(C)CC4)O[C@@H](C)[C@H](C)[C@@H]3O |  | RF | CEM + CEM-SS | XTT | EC50 | 0.23 µM |
| C=CCN(C(=O)CCc1ccccc1)C1CCN([C@H]2CN(C(=O)C3CCCC3)C[C@]2(O)c2ccccc2)CC1 |  |  | PBMC | p24 / ELISA | EC50 | >0.1 µM |
| COC(=O)[C@H](Cc1c[nH]c2ccccc12)NP(=O)(OC[C@H]1O[C@@H](N2C(=O)NC(=O)C(C)(Br)C2OC)C[C@@H]1N=[N+]=[N-])Oc1ccc(Br)cc1 |  | IIIB | PBMC | p24 / ELISA | EC50 | 0.34 µM |
| CC(C)c1nc(CN(C)C(=O)N[C@H](C(=O)N[C@@H](Cc2ccccc2)C[C@H](O)[C@H](Cc2ccccc2)NC(=O)OCc2cncs2)C(C)C)cs1 |  | MN | MT-2 | RT activity | EC50 | 0.005 µM |
| CC(C)c1cc2c(c(O)c1O)[C@@]1(C(=O)O)CCCC(C)(C)C1CC2 |  | BaL | PBMC |  | EC50 | 0.025 µM |
| C=CCN(C(=O)NCc1ccc(S(=O)(=O)N(C)C)cc1)C1CC2CCC(C1)N2C[C@H]1CN(C(=O)C2CCCC2)C[C@]1(O)c1cccc(F)c1 |  |  | PBMC | p24 | EC50 | <0.005 µM |
| Cc1nc2ccccc2n(CC(=O)N/N=C/c2ccc([N+](=O)[O-])cc2)c1=O |  | IIIB | C8166 | syncytia / visual reading | EC50 | 70.83 µM |
| COC(=O)[C@H](C)NP(=O)(OC[C@H]1O[C@@H](n2cc(C)c(=O)[nH]c2=O)C[C@@H]1N=[N+]=[N-])Oc1ccc(Br)cc1 |  | IIIB | CEM + CEM TK- | RT activity | EC50 | 0.037–0.039 µM |
| C=CCN(C(=O)OCc1ccc(S(=C)(C)=O)cc1)C1CCN([C@H]2CN(C(=O)C3CCCC3)C[C@]2(O)c2ccccc2)CC1 |  |  | PBMC |  | EC50 | <0.005 µM |
| COC(=O)[C@H](C)NP(=O)(OC[C@H]1O[C@@H](N2C(=O)NC(=O)C(C)(Br)C2OC)C[C@@H]1N=[N+]=[N-])Oc1ccccc1 |  | IIIB | PBMC | p24 / ELISA | EC50 | 0.035 µM |
| CC[C@]1(c2ccccc2)Oc2cccnc2-n2cccc2C1=O |  | Clinical isolate wild type | PBMC | RT activity | EC50 | 0.04 µM |
| Cc1cn([C@@H]2O[C@H](CO[Si](C)(C)C(C)(C)C)C3(OS(=O)(=O)C=C3N)[C@H]2O[Si](C)(C)C(C)(C)C)c(=O)n(CC(=O)N[C@H](C(=O)OCc2ccccc2)C(C)C)c1=O |  | IIIB | CEM | syncytia | EC50 | 2.3 µM |
| COC(=O)[C@@H](CC(C)C)NP(=O)(OC[C@H]1C=C[C@@H](n2cnc3c(N)ncnc32)C1)Oc1ccccc1 |  | IIIB | MT-4 | cytopathic effect / trypan blue | EC50 | 1.24 µM |
| C=CCN(C(=O)OCc1ccc(S(=O)ON(C)C)cc1)C1CCN([C@H]2CN(C(=O)C3CCCC3)C[C@]2(O)c2ccccc2)CC1 |  |  | PBMC | p24 / ELISA | EC50 | <0.005 µM |
| COC(=O)[C@H](Cc1c[nH]c2ccccc12)NP(=O)(OC[C@H]1O[C@@H](N2C(=O)NC(=O)C(C)(Br)C2OC)C[C@@H]1N=[N+]=[N-])Oc1ccc([N+](=O)[O-])cc1 |  | IIIB | PBMC | p24 / ELISA | EC50 | 0.04 µM |
| C=CCN(C(=O)NCc1ccc(C(F)(F)F)cc1)C1CCN(C[C@H]2CN(C(=O)C3CCC(F)(F)CC3)C[C@]2(O)c2ccccc2)CC1 |  |  | PBMC | p24 | EC50 | 0.006–0.05 µM |
| NC(=S)N/N=C(\c1ccccc1)c1ccccn1 | (delta)vpr | VSV-G-pseudotyped NL4-3 | CEM | luciferase | EC50 | 0.0016 µM |
| Nc1nc(=O)n([C@@H]2CS[C@H](CO)O2)cc1F |  | 2:DR1 AZT-resistant | PBMC | RT activity | EC50 | 0.08 µM |
| C=CCNC(=S)N/N=C(\c1ccccc1)c1ccccn1 | (delta)vpr | VSV-G-pseudotyped NL4-3 | CEM | luciferase | EC50 | 0.16 µM |
| C=CCN(C(=O)NCc1ccccc1)C1CCN(C[C@H]2CN(C(=O)C3CCCC3)C[C@]2(O)c2ccccc2)CC1 |  |  | PBMC | p24 | EC50 | >0.1 µM |
| O=c1[nH]cnc2c1ncn2[C@H]1CC[C@@H](CO)O1 | RT-M184V | 126 BCH-189 (RT-M184V) | MT-4 | p24 | EC50 | 65 µM |
| COC(=O)[C@H](CCSC)NP(=O)(OC[C@H]1C=C[C@@H](n2cnc3c(N)ncnc32)C1)Oc1ccccc1 |  | IIIB | MT-4 | cytopathic effect / MTS | EC50 | 1.4 µM |
| CCCc1cc(=O)oc2c3c(c4c(c12)OC(C)(C)C=C4)O[C@H](C)[C@@H](C)[C@@H]3O |  | RF | CEM + CEM-SS | RT activity | EC50 | 0.07 µM |
| Cc1cccc(C)c1OCC(=O)N[C@@H](Cc1ccccc1)[C@@H](O)C[C@H](Cc1ccccc1)NC(=O)[C@H](C(C)C)N1CCCNC1=O |  | LAI | MT-2 |  | EC50 | 0.034 µM |
| COC(=O)[C@H](CCCCN)NP(=O)(OC[C@H]1C=C[C@@H](n2cnc3c(N)ncnc32)C1)Oc1ccccc1 |  | IIIB | MT-4 | cytopathic effect / MTS | EC50 | 25 µM |
| CC(=O)N1CCC(C(=O)N(CCCN2CCC(Cc3ccc(C(N)=O)cc3)CC2)c2ccc(C)c(Cl)c2)CC1 |  | HHA R5 clinical isolate | PBMC | p24 | EC50 | 0.00055 µM |
| COC(=O)[C@H](CC(C)C)NP(=O)(OC[C@H]1O[C@@H](N2C(=O)NC(=O)C(C)(Br)C2OC)C[C@@H]1N=[N+]=[N-])Oc1ccc(Br)cc1 |  | IIIB | PBMC | p24 / ELISA | EC50 | 0.026 µM |
| NC(=O)c1ncn([C@H]2O[C@@H](COP(=O)(O)OC[C@@H]3C=C[C@H](n4cnc5c(=O)[nH]cnc54)O3)[C@H](O)[C@@H]2O)n1 | RT-Y181C | IIIB MKC-442-resistant (RT Y181C) | MT-4 | cytopathic effect / MTT | EC50 | >17.5 µM |
| Cc1ccnc2c1NC(=O)c1cccnc1N2C1CC1 | RT-M41L K103N T215Y | Resistant (MDR) isolate | PBMC | RT activity | EC50 | 14.8 µM |
| Cc1cn([C@H]2C[C@H](N=[N+]=[N-])[C@@H](CO)O2)c(=O)[nH]c1=O |  | LAI | PBMC | RT activity | EC50 | 0.026 µM |
| Cc1cn([C@H]2C[C@H](N=[N+]=[N-])[C@@H](CO)O2)c(=O)[nH]c1=O |  | IIIB | CEM + CEM-SS |  | EC50 | 0.006 µM |
| C/C(=C(/CCO)SS/C(CCO)=C(\C)N(C=O)Cc1cnc(C)nc1N)N(C=O)Cc1cnc(C)nc1N |  | IIIB | MOLT-4/HIV-1(IIIB) + MOLT-4 | p24 | EC50 | <125 µM |
| COC(=O)CNP(=O)(OC[C@H]1C=C[C@@H](n2cnc3c(N)ncnc32)C1)Oc1ccccc1 |  | IIIB | MT-4 | cytopathic effect / MTS | EC50 | 7.3 µM |
| COC(=O)[C@@H]1CCCN1P(=O)(OC[C@H]1O[C@@H](N2C(=O)NC(=O)C(C)(Br)C2OC)C[C@@H]1N=[N+]=[N-])Oc1ccccc1 |  | IIIB | PBMC | p24 / ELISA | EC50 | 0.246 µM |
| Cc1cn([C@@H]2O[C@H](CO[Si](C)(C)C(C)(C)C)C3(OS(=O)(=O)C=C3N)[C@H]2O[Si](C)(C)C(C)(C)C)c(=O)n(CC(=O)N[C@@H](CC(=O)O)C(=O)O)c1=O |  | IIIB | CEM | syncytia | EC50 | 6.7 µM |
| C=CCN(C(=O)NCc1ccc(S(N)(=O)=O)cc1)C1CC2CCC(C1)N2C[C@H]1CN(C(=O)C2CC2)C[C@]1(O)c1cccc(F)c1 |  |  | PBMC | p24 | EC50 | 0.051–0.099 µM |
| Nc1ccn([C@H]2CC[C@@H](CO)O2)c(=O)n1 | RT-L74V |  | PBMC | p24 | EC50 | 0.23 µM |
| Nc1ncnc2c1ncn2C1CC(/C=C/P(=O)(O)O)(C(F)(F)F)CO1 |  | LAI | PBMC | RT activity | EC50 | 48 µM |
| O=c1[nH]cnc2c1ncn2[C@H]1CC[C@@H](CO)O1 | RT-L74V |  | PBMC | p24 | EC50 | 2 µM |
| COC(=O)C[C@H](NP(=O)(OC[C@H]1C=C[C@@H](n2cnc3c(N)ncnc32)C1)Oc1ccccc1)C(=O)OC |  | IIIB | MT-4 | cytopathic effect / MTS | EC50 | >1 µM |
| COC(=O)[C@H](Cc1ccccc1)NP(=O)(OC[C@H]1O[C@@H](N2C(=O)NC(=O)C(C)(Br)C2OC)C[C@@H]1N=[N+]=[N-])Oc1ccccc1 |  | IIIB | PBMC | p24 / ELISA | EC50 | 0.15 µM |
| Nc1nc(=O)n([C@H]2CO[C@@H](CO)S2)cc1F |  | IIIB | CEM | p24 | EC50 | 0.3 µM |
| C=CCN(C(=O)Cc1ccc(S(C)(=O)=O)cc1)C1CCN(C[C@H]2CN(C(=O)C3CCCC3)C[C@]2(O)c2ccccc2)CC1 |  |  | PBMC | p24 | EC50 | >0.1 µM |
| Cc1cn([C@@H]2O[C@H](CO[Si](C)(C)C(C)(C)C)C3(OS(=O)(=O)C=C3N)[C@H]2O[Si](C)(C)C(C)(C)C)c(=O)n(CC(=O)N[C@@H](C)C(=O)O)c1=O |  | IIIB | CEM | syncytia | EC50 | 5.5 µM |
| Cc1cn([C@H]2C[C@H](N=[N+]=[N-])[C@@H](CO)O2)c(=O)[nH]c1=O |  | IIIB | MT-4 | cytopathic effect | EC50 | 0.06 µM |
| CCc1c(Sc2cc(C)cc(C)c2)n(COCCO)c(=O)[nH]c1=O | RT-Y181C | IIIB MKC-442-resistant (RT Y181C) | MT-4 | cytopathic effect / MTT | EC50 | 2.4 µM |

The last 6 rows once more:

| structure | changes | strain or isolate | cells | method | endpoint | value |
|---|---|---|---|---|---|---|
| COC(=O)[C@H](Cc1ccccc1)NP(=O)(OC[C@H]1O[C@@H](N2C(=O)NC(=O)C(C)(Br)C2OC)C[C@@H]1N=[N+]=[N-])Oc1ccccc1 |  | IIIB | PBMC | p24 / ELISA | EC50 | 0.15 µM |
| Nc1nc(=O)n([C@H]2CO[C@@H](CO)S2)cc1F |  | IIIB | CEM | p24 | EC50 | 0.3 µM |
| C=CCN(C(=O)Cc1ccc(S(C)(=O)=O)cc1)C1CCN(C[C@H]2CN(C(=O)C3CCCC3)C[C@]2(O)c2ccccc2)CC1 |  |  | PBMC | p24 | EC50 | >0.1 µM |
| Cc1cn([C@@H]2O[C@H](CO[Si](C)(C)C(C)(C)C)C3(OS(=O)(=O)C=C3N)[C@H]2O[Si](C)(C)C(C)(C)C)c(=O)n(CC(=O)N[C@@H](C)C(=O)O)c1=O |  | IIIB | CEM | syncytia | EC50 | 5.5 µM |
| Cc1cn([C@H]2C[C@H](N=[N+]=[N-])[C@@H](CO)O2)c(=O)[nH]c1=O |  | IIIB | MT-4 | cytopathic effect | EC50 | 0.06 µM |
| CCc1c(Sc2cc(C)cc(C)c2)n(COCCO)c(=O)[nH]c1=O | RT-Y181C | IIIB MKC-442-resistant (RT Y181C) | MT-4 | cytopathic effect / MTT | EC50 | 2.4 µM |